For assay [1], the system named is oseltamivir-resistant K/2785 virus. As to the kind of experiment: monotherapy of mice after lethal challenge (survival, MDD). In kind it is in vivo, DBA/2 mice. Particulars: twice a day for five days from 4 hpi, 2 MLD50.
The test system is the same in assay [2]. As to the kind of experiment: combination therapy of mice after lethal challenge (survival, MDD, synergism). The format is in vivo, DBA/2 mice. Particulars: five days from 4 hpi.

Marks after values point to notes of the source that are not given here.

As to `CCC(CC)[C@H](NC(C)=O)[C@@H]1[C@H](O)[C@@H](C(=O)O)C[C@H]1NC(=N)N`, the “% survival” value in assay [1] (peramivir 22.5 mg/kg/day i.m.) is 0/7 (0.0%); in assay [1] (peramivir 45 mg/kg/day i.m.) it was 1/7 (14.3%); in assay [1] (peramivir 90 mg/kg/day i.m.), 5/7 (71.4%)*; in assay [2] (peramivir 25 mg/kg/day i.m. alone), 0/10 (00.0%); in assay [2] (peramivir 25 mg/kg/day i.m. alone, listed as peramivir), 0%; in assay [2] (peramivir 50 mg/kg/day i.m. alone), 2/10 (20.0%). Also, the “% survival” value in assay [2] (peramivir 50 mg/kg/day i.m. alone, listed as peramivir) is listed as 20%; in assay [2] (peramivir 100 mg/kg/day i.m. alone), 5/10 (50.0%)*; in assay [2] (peramivir 100 mg/kg/day i.m. alone, listed as peramivir) it was 50%.
